Measured data: PubChem BioAssay AID504761 (Drosophila RNAi Screening Center, 2011)
The deposit covers about 22,000 reagents; this is a random part of those that have a named target and a result. Over the whole deposit, 116 (0.52%) were called active. 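Calls depend on retest data that are not deposited; infection was ranked per plate without normalising between plates; the unit of the infection score is not given.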 Raw values vary from plate to plate and are shown uncorrected. A number with no mark means an inactive call. A plus sign joins genes that one reagent is predicted to hit. Not given: the amount of reagent, the time to read-out.

Assay: 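Insect host genes that dengue virus relies on to spread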 (primary screen)
Cell system: D.Mel-2 cells from Drosophila
Reagent: long dsRNA against Drosophila genes
Conditions: infection with dengue virus type 2; dose and infection time not stated
Read-out: 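Cells stained for dengue envelope protein and imaged; percent of infected cells per well on duplicate plates, ranked by infection, with stained nuclei counted for cell number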
Direction: infection score: higher = more virus-infected cells; cell count: higher = more cells in the well
Hit rule: 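Very low infection ranking in both replicate wells (chance probability at most 0.065), then a retest showing infection dropped 1.5-fold or more at p below 0.05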
Calls: active = confirmed: knock-down lowers infection; inactive = not picked or not confirmed

maf-S [DRSC07348]: infection score, replicate 1 = 2.64; infection score, replicate 2 = 2.1; cell count, replicate 1 = 6243; cell count, replicate 2 = 6101
Lpin [DRSC07241]: infection score, replicate 1 = 7.1; infection score, replicate 2 = 19.1; cell count, replicate 1 = 5785; cell count, replicate 2 = 6257
nan [DRSC10551]: infection score, replicate 1 = 1.93; infection score, replicate 2 = 4.43; cell count, replicate 1 = 6213; cell count, replicate 2 = 6188
ODA-Dnal1 [DRSC07270]: infection score, replicate 1 = 8.12; infection score, replicate 2 = 6.48; cell count, replicate 1 = 6074; cell count, replicate 2 = 6929
ODA-Dnal1 [DRSC28259]: infection score, replicate 1 = 17.1; infection score, replicate 2 = 7.39; cell count, replicate 1 = 6093; cell count, replicate 2 = 6269
CG7675 [DRSC16280]: infection score, replicate 1 = 10.5; infection score, replicate 2 = 4.2; cell count, replicate 1 = 5950; cell count, replicate 2 = 6718
CG7675 [DRSC26897]: infection score, replicate 1 = 5.52; infection score, replicate 2 = 14.1; cell count, replicate 1 = 6391; cell count, replicate 2 = 6934
CG34315 + Orc3 [DRSC07642]: infection score, replicate 1 = 5.82; infection score, replicate 2 = 6.47; cell count, replicate 1 = 6723; cell count, replicate 2 = 6798
CG34315 + Orc3 [DRSC25371]: infection score, replicate 1 = 6.36; infection score, replicate 2 = 4.7; cell count, replicate 1 = 6113; cell count, replicate 2 = 6472
Kdm4A [DRSC06586]: infection score, replicate 1 = 22.5; infection score, replicate 2 = 26.8; cell count, replicate 1 = 3560; cell count, replicate 2 = 5550
Kdm4A [DRSC29611]: infection score, replicate 1 = 9.92; infection score, replicate 2 = 11.6; cell count, replicate 1 = 3731; cell count, replicate 2 = 4022
CG10555 [DRSC23202]: infection score, replicate 1 = 1.51; infection score, replicate 2 = 12.1; cell count, replicate 1 = 6772; cell count, replicate 2 = 7143
CG10555 [DRSC27738]: infection score, replicate 1 = 22.3; infection score, replicate 2 = 5.69; cell count, replicate 1 = 6669; cell count, replicate 2 = 6697

Only “cell count, replicate 1” (2 entries from above):
CG10555 [DRSC23202] = 6772
CG10555 [DRSC27738] = 6669

The listing continues.
NetA [DRSC20261]: infection score, replicate 1 = 5.61; infection score, replicate 2 = 4.31; cell count, replicate 1 = 6128; cell count, replicate 2 = 6519
CG8067 [DRSC07065]: infection score, replicate 1 = 12.1; infection score, replicate 2 = 6.64; cell count, replicate 1 = 5869; cell count, replicate 2 = 5890
rdgA [DRSC17863]: infection score, replicate 1 = 2.8; infection score, replicate 2 = 3.62; cell count, replicate 1 = 6110; cell count, replicate 2 = 6468
rdgA [DRSC18036]: infection score, replicate 1 = 10.4; infection score, replicate 2 = 8.15; cell count, replicate 1 = 6431; cell count, replicate 2 = 6687
rdgA [DRSC18827]: infection score, replicate 1 = 3.87; infection score, replicate 2 = 3.93; cell count, replicate 1 = 6462; cell count, replicate 2 = 6965
rdgA [DRSC25192]: infection score, replicate 1 = 3.27; infection score, replicate 2 = 9.33; cell count, replicate 1 = 6460; cell count, replicate 2 = 6541
rdgA [DRSC27192]: infection score, replicate 1 = 20.3; infection score, replicate 2 = 22.3; cell count, replicate 1 = 6235; cell count, replicate 2 = 6761
lectin-46Ca [DRSC06612]: infection score, replicate 1 = 7.04; infection score, replicate 2 = 4.61; cell count, replicate 1 = 6522; cell count, replicate 2 = 6313
lectin-46Ca [DRSC25469]: infection score, replicate 1 = 8.26; infection score, replicate 2 = 0.95; cell count, replicate 1 = 5837; cell count, replicate 2 = 5999
Acsx3 [DRSC14309]: infection score, replicate 1 = 1.54; infection score, replicate 2 = 2.08; cell count, replicate 1 = 6628; cell count, replicate 2 = 7025
Alms1a [DRSC18558]: cell count, replicate 1 = 387; cell count, replicate 2 = 415
CG7878 [DRSC16330]: infection score, replicate 1 = 1.48; infection score, replicate 2 = 2.72; cell count, replicate 1 = 6957; cell count, replicate 2 = 6806
CG7878 [DRSC23990]: infection score, replicate 1 = 7.49; infection score, replicate 2 = 8.3; cell count, replicate 1 = 6692; cell count, replicate 2 = 6074
ewg [DRSC18773]: infection score, replicate 1 = 0.61; infection score, replicate 2 = 4.31; cell count, replicate 1 = 6706; cell count, replicate 2 = 6826
ewg [DRSC26141]: infection score, replicate 1 = 9.62; infection score, replicate 2 = 6.06; cell count, replicate 1 = 6175; cell count, replicate 2 = 6037
